Results of unrelated studies side by side (data: NIAID ChemDB).

Shared fields: tests in culture; agent: HIV-1; method: p24; measure: EC50

Neighbouring rows are from separate reports. ECn is the concentration giving n% inhibition of infection, replication or growth. An empty or dashed field is not shown. Two numbers with a dash give a range or band.

{"structure": "Cc1ccc(C(=O)NC(C)(C)C(=O)N[C@@]23CC[C@]4(C)[C@H](CC[C@@H]5[C@@]6(C)CC[C@H](OC(=O)C7C[C@@H](C(=O)O)C7(C)C)C(C)(C)[C@@H]6CC[C@]54C)C2=C(C(C)C)C(=O)C3)cn1", "strain or isolate": "NL4-3", "cell line": "MT-4", "value": "<0.005 µM"}
{"structure": "CS(=O)c1ccc(-c2nc(-c3ccc(F)cc3)c(-c3ccncc3)[nH]2)cc1", "strain or isolate": "Nevirapine resistant N119 Clinical isolate", "cell line": "PBMC", "value": ">1 µM"}
{"structure": "COc1ccc(S(=O)(=O)N(CC(C)C)C[C@@H](O)C[C@@H](CNCC(C)C)Cc2ccccc2)cc1", "strain or isolate": "IIIB", "cell line": "CEM", "value": "<1 µM"}
{"structure": "CC(C)[C@H](NC(=O)OCc1ccccn1)C(=O)N[C@@H](Cc1ccccc1)[C@@H](O)C[C@H](Cc1ccccc1)NC(=O)OCc1cccnc1", "strain or isolate": "Isolate A PR L10V/T12I/G16E/R57K/I64V", "cell line": "PBMC", "changes": "PR-L10V T12I G16E R57K I64V", "value": "<0.8 µM"}
{"structure": "CN(C)S(=O)(=O)N(C)C1COCCn2c1nc(C(=O)NCc1ccc(F)cc1)c(O)c2=O", "cell line": "MT-4", "value": "<1 µM"}
{"structure": "CCN1c2ncc(CCOc3ccc(C(=O)N4CCC(C(=O)O)CC4)cc3C)cc2C(=O)N(C)c2cccnc21", "strain or isolate": "IIIB", "cell line": "C8166", "value": "0.01–0.05 µM"}
{"structure": "CC1(C)CC(=O)C(S(=O)(=O)N(CC2CCCC2)C[C@@H](O)CN(CCc2ccccc2)C(=O)c2ccccc2)C(=O)S1(=O)=O", "strain or isolate": "IIIB", "cell line": "CEM", "value": "<1 µM"}
{"structure": "COc1ccc(-c2c(C)nc3c(N4CC[C@@H](NS(=O)(=O)c5ccc(Cl)cc5)C4)cc(C)nn23)cc1OC", "cell line": "H9", "value": "0.4 µM"}
{"structure": "CCN1c2ncc(CCOc3ccc(-c4ccccn4)cc3C)cc2C(=O)N(C)c2cccnc21", "cell line": "C8166", "changes": "RT-K103N Y181C", "value": "<0.01 µM"}
{"structure": "COc1ccc(-c2c(C)nc3c(N4CC[C@@H](NC(=O)[C@@H](OC)c5ccccc5)C4)cc(C)nn23)cc1OC", "cell line": "H9", "value": "0.4 µM"}
{"structure": "CCN1c2ncc(CCOc3ccc(NS(=O)(=O)C(F)(F)F)c4ccccc34)cc2C(=O)N(C)c2ccc(F)nc21", "cell line": "C8166", "changes": "RT-K103N Y181C", "value": "<0.1 µM"}
{"structure": "CC(C)C1=C2[C@H]3CC[C@@H]4[C@@]5(C)CC[C@H](OC(=O)C6C[C@@H](C(=O)O)C6(C)C)C(C)(C)[C@@H]5CC[C@@]4(C)[C@]3(C)CC[C@@]2(NC(=O)C2(NC(=O)c3ccc(F)cc3)CC2)CC1=O", "strain or isolate": "NL4-3", "cell line": "MT-4", "value": "0.00501–0.01 µM"}
{"structure": "CC1(C)c2nc(C(=O)NCc3ccc(F)cc3)c(O)c(=O)n2CCN1Cc1cn[nH]n1", "cell line": "MT-4", "value": "<1 µM"}
{"structure": "CCN1c2ncc(CCOc3ccc(CCC(=O)O)c4c3CCCC4)cc2C(=O)N(C)c2ccc(Cl)nc21", "strain or isolate": "WT", "cell line": "C8166", "value": "<0.1 µM"}
{"structure": "COc1ccc(-c2c(C)nc3c(N4CC[C@@H](NC(=O)Oc5ccccc5)C4)cc(C)nn23)cc1OC", "cell line": "H9", "value": "0.3 µM"}
{"structure": "CCN1c2ncc(CCOc3ccc(C(=O)c4ccc(C(=O)O)cc4)cc3C)cc2C(=O)N(C)c2cccnc21", "strain or isolate": "IIIB", "cell line": "C8166", "value": "<0.01 µM"}
{"structure": "Cc1ccc(C)n1-c1ccc(C(=O)O)c(O)c1", "strain or isolate": "93BR020 X4R5 CLADE F", "cell line": "PBMC + MT-2", "value": "10.6 µM"}
{"structure": "COc1ccc(-c2c(C)nc3c(N4CC[C@@H](NS(=O)(=O)c5ccc(C(C)=O)cc5)C4)cc(C)nn23)cc1OC", "cell line": "H9", "value": "0.2 µM"}
{"structure": "CCN1c2ncc(CCOc3ccc(CC(=O)NN)c4ccccc34)cc2C(=O)N(C)c2ccc(Cl)nc21", "cell line": "C8166", "changes": "RT-K103N Y181C", "value": "<0.1 µM"}
{"structure": "CN(C)CC(=O)N1CCn2c(nc(C(=O)NCc3ccc(F)cc3)c(O)c2=O)C1(C)C", "cell line": "MT-4", "value": "<1 µM"}
{"structure": "CC(C)=CCOc1cc(NC(=S)c2ccoc2C)ccc1Cl", "strain or isolate": "NL4-3", "cell line": "CEM + CEM-SS", "changes": "RT-K101E", "value": "0.04 µM"}
{"structure": "Nc1nc(=O)n([C@H]2C=C[C@@H](CO)O2)cc1F", "strain or isolate": "XM-T69SSS", "cell line": "MT-4", "changes": "RT-T69SSS L210W T215Y", "value": "<8.2 µM"}
{"structure": "CCN1c2ncc(CCOc3ccc(C(=O)NNC)cc3C)cc2C(=O)N(C)c2cccnc21", "cell line": "C8166", "changes": "RT-K103N Y181C", "value": "<0.01 µM"}
{"structure": "COc1ccc(S(=O)(=O)N(CC(C)C)C[C@@H](O)CCN(CCc2ccccc2)C(=O)O[C@H]2CCOC2)cc1", "strain or isolate": "IIIB", "cell line": "CEM", "value": "<1 µM"}
{"structure": "COc1ccc(-c2c(C)nc3c(N4CC[C@@H](NS(=O)(=O)c5cccs5)C4)cc(C)nn23)cc1OC", "cell line": "H9", "value": "0.1 µM"}
{"structure": "CCN1c2ncc(CCOc3ccc(CCC(=O)O)c4c3CCCC4)cc2C(=O)N(C)c2cccnc21", "cell line": "C8166", "changes": "RT-K103N Y181C", "value": "<0.1 µM"}
{"structure": "CC1(C)c2nc(C(=O)NCc3ccc(F)cc3)c(O)c(=O)n2CCN1Cc1ccccc1", "cell line": "MT-4", "value": "<1 µM"}
{"structure": "Cc1ccc(C(=O)NC2(C(=O)N[C@@]34CC[C@]5(C)[C@H](CC[C@@H]6[C@@]7(C)CC[C@H](OC(=O)C8C[C@@H](C(=O)O)C8(C)C)C(C)(C)[C@@H]7CC[C@]65C)C3=C(C(C)C)C(=O)C4)CCCC2)cn1", "strain or isolate": "NL4-3", "cell line": "MT-4", "changes": "V7A", "value": "<0.01 µM"}
{"structure": "CCN1c2ncc(CCOc3ccc(-c4csc(C(=O)O)c4)cc3C)cc2C(=O)N(C)c2cccnc21", "strain or isolate": "IIIB", "cell line": "C8166", "value": "<0.01 µM"}
{"structure": "Clc1cc(CN2CCCNCCNCCCNCC2)cc(Cl)n1", "strain or isolate": "HE R3 R5 X4", "cell line": "HOS-CD4-CCR5 + HOS", "value": "6.1 µM"}
{"structure": "Cc1ccc(-c2ccc3c(c2)C=C(C(=O)Nc2ccc(C[N+](C)(C)C4CCOCC4)cc2)CCC3)cc1", "strain or isolate": "CM1 CLADE C", "cell line": "PBMC", "value": "<1 µM"}
{"structure": "Cc1ccc(CNC(=O)c2nc3n(c(=O)c2O)CCN(C)CC3N(C)C(=O)C(=O)N(C)C)cc1Cl", "cell line": "MT-4", "value": "<1 µM"}
{"structure": "Nc1nc(NC2CC2)c2ncn([C@H]3C=C[C@@H](CO)C3)c2n1", "strain or isolate": "NL-XM WT", "cell line": "PBMC", "value": "<4.5 µM"}
{"structure": "COc1ccc(-n2c(C)nc3c(N4CC[C@@H](NC(C)=O)C4)ncnc32)cc1OC", "cell line": "H9", "value": ">100 µM"}
{"structure": "CC(C)CN(C[C@@H](O)[C@H](Cc1ccccc1)NC(=O)O[C@H]1CO[C@H]2OCC[C@H]21)S(=O)(=O)c1ccc2c(c1)OCO2", "strain or isolate": "NL4-3 (IDV5)", "cell line": "MT-4", "changes": "L10F/L24I/M46I/I54V/L63P/A71V/G73S/V82T", "value": "0.0037 µM"}
{"structure": "CCN1c2ncccc2NC(=O)c2cc(CCOc3ccc(-c4ccc(CC(=O)O)cc4)cc3C)cnc21", "strain or isolate": "IIIB", "cell line": "C8166", "value": "<0.01 µM"}
{"structure": "CCN1c2ncc(CCOc3ccc(CC(=O)O)c4ccccc34)cc2C(=O)Nc2c(C)cc(Cl)nc21", "strain or isolate": "WT", "cell line": "C8166", "value": "<0.1 µM"}
{"structure": "CC(C)C1=C2[C@H]3CC[C@@H]4[C@@]5(C)CC[C@H](OC(=O)C6C[C@@H](C(=O)O)C6(C)C)C(C)(C)[C@@H]5CC[C@@]4(C)[C@]3(C)CC[C@@]2(NC(=O)C2(NC(=O)c3ncccn3)CCC2)CC1=O", "strain or isolate": "NL4-3", "cell line": "MT-4", "value": ">0.01 µM"}
{"structure": "COC1CCC(S(=O)(=O)N(CC2CCCC2)C[C@@H](O)CN(CCc2ccccc2)C(=O)c2ccccc2)CO1", "strain or isolate": "IIIB", "cell line": "CEM", "value": "<1 µM"}
{"structure": "Nc1nccc2c1ncn2[C@@H]1C=C(CO)[C@@H](O)[C@H]1O", "strain or isolate": "18431 unpaired", "cell line": "PBMC", "value": "0.0027 µM"}
{"structure": "CC(C)CN(CC(O)CNc1cscc1S(=O)(=O)c1ccccc1)S(=O)(=O)c1ccccc1", "strain or isolate": "IIIB", "cell line": "CEM", "value": "<1 µM"}
{"structure": "CCN1c2ncc(CCOc3ccc(CCC(=O)O)c4ccccc34)cc2C(=O)N(C)c2ccc(Cl)nc21", "strain or isolate": "WT", "cell line": "C8166", "value": "<0.1 µM"}
{"structure": "COc1cc(N2CC[C@@H](NC(C)=O)C2)c2nc(C)c(-c3ccc(OC)c(OC)c3)n2n1", "cell line": "H9", "value": ">1 µM"}
{"structure": "CN1CCn2c(nc(C(=O)NCc3ccc(F)cc3)c(O)c2=O)C(N(CC2CCCCC2)C(=O)C(=O)N(C)C)C1", "cell line": "MT-4", "value": "<1 µM"}
{"structure": "Nc1nccc2c1ncn2[C@@H]1O[C@H](CO)[C@@H](O)[C@H]1O", "strain or isolate": "18453 unpaired", "cell line": "PBMC", "value": "0.0217 µM"}
{"structure": "COc1ccc(S(=O)(=O)N(CC(C)C)C[C@@H](O)CCc2ccccc2C(=O)NC(C)(C)C)cc1", "strain or isolate": "IIIB", "cell line": "CEM", "value": "<1 µM"}

Again, the opening 5 rows:

structure,strain or isolate,cell line,changes,value
Cc1ccc(C(=O)NC(C)(C)C(=O)N[C@@]23CC[C@]4(C)[C@H](CC[C@@H]5[C@@]6(C)CC[C@H](OC(=O)C7C[C@@H](C(=O)O)C7(C)C)C(C)(C)[C@@H]6CC[C@]54C)C2=C(C(C)C)C(=O)C3)cn1,NL4-3,MT-4,,<0.005 µM
CS(=O)c1ccc(-c2nc(-c3ccc(F)cc3)c(-c3ccncc3)[nH]2)cc1,Nevirapine resistant N119 Clinical isolate,PBMC,,>1 µM
COc1ccc(S(=O)(=O)N(CC(C)C)C[C@@H](O)C[C@@H](CNCC(C)C)Cc2ccccc2)cc1,IIIB,CEM,,<1 µM
CC(C)[C@H](NC(=O)OCc1ccccn1)C(=O)N[C@@H](Cc1ccccc1)[C@@H](O)C[C@H](Cc1ccccc1)NC(=O)OCc1cccnc1,Isolate A PR L10V/T12I/G16E/R57K/I64V,PBMC,PR-L10V T12I G16E R57K I64V,<0.8 µM
CN(C)S(=O)(=O)N(C)C1COCCn2c1nc(C(=O)NCc1ccc(F)cc1)c(O)c2=O,,MT-4,,<1 µM